Compound potency records, mixed from different reports. Data source: NIAID ChemDB in PubChem.

All rows: target-level tests

Fold resistance has wild type as its base. ICn is the concentration giving n% inhibition. An empty or dashed field is not shown. Conditions beyond the fields shown may differ between rows. Percent inhibition refers to the dose given; in toxicity tests it is the harm to the cells.

compound	protein	dose	read by	strain or isolate	changes	agent	measure	result
CC(C)(C)OC(=O)CCNc1nnc(NC(=O)/C=C/c2ccccc2Cl)s1	Polymerase	-	-	-	-	Human cytomegalovirus	IC50	>25 µM
c1cnccn1	Uracil phosphoribosyltransferase	2000 µM	-	RH	-	Toxoplasma gondii	inhibition	<5%
Cc1cn([C@@H]2O[C@H](CO[Si](C)(C)C(C)(C)C)C3(OS(=O)(=O)C=C3N)[C@H]2O[Si](C)(C)C(C)(C)C)c(=O)n(C)c1=O	Reverse transcriptase	-	nucleotide incorporation / radiometric	-	RT-N137T	HIV	IC50	0.3 µM
CC(Br)(C(=O)O)P(=O)(O)O	DNA polymerase	-	-	-	-	Epstein-Barr virus	IC50	>100 µM
Nc1nc2c(ncn2[C@H]2CC[C@@H](COP(=O)(O)OP(=O)(O)OP(=O)(O)O)O2)c(=O)[nH]1	Reverse transcriptase	-	nucleotide incorporation / radiometric	-	RT-N137E	HIV	IC50	0.083 µM
O=C(c1ccccc1Cl)N1C[C@H](CN2CCC(O)(CCCc3ccc(-c4nn[nH]n4)cc3)CC2)[C@@H](c2ccccc2)C1	CCR5	-	radiometric	-	CCR5-Y37A	-	IC50	0.01 µM
O=C(O)C(F)(Br)P(=O)(O)O	DNA polymerase	100 µM	-	-	-	Herpes simplex virus 2	inhibition	70%
O=c1cc(O)cc[nH]1	Uracil phosphoribosyltransferase	2000 µM	-	RH	-	Toxoplasma gondii	inhibition	<5%
CCN(C(=O)OCc1ccccc1)C1CCN(CC[C@](C)(CN(C)S(=O)(=O)c2ccccc2)c2ccccc2)CC1	CCR5	-	radiometric	-	CCR5-Y37A	-	fold resistance	0.725
O=C(Nc1nnc(NCCc2c[nH]c3ccccc23)s1)c1c(Cl)cccc1Cl	Polymerase	-	-	-	-	Human cytomegalovirus	IC50	>25 µM
O=C(O)C(Br)(Br)P(=O)(O)O	DNA polymerase	100 µM	-	-	-	Herpes simplex virus 2	inhibition	4%
CCCCCCCC/C=C/CCCCCCCC(=O)Nc1nnc(NCc2ccc(S(N)(=O)=O)cc2)s1	Polymerase	-	-	-	-	Human cytomegalovirus	IC50	<25 µM
Cc1[nH]c(=O)[nH]c(=O)c1[N+](=O)[O-]	Uracil phosphoribosyltransferase	2000 µM	-	RH	-	Toxoplasma gondii	inhibition	<10%
CCCCCCCC/C=C/CCCCCCCC(=O)Nc1nnc(NC2CCN(Cc3ccccc3)CC2)s1	Polymerase	-	-	-	-	Human cytomegalovirus	IC50	>25 µM
CC(C)=CCOc1cc(NC(=S)c2ccoc2C)ccc1Cl	Reverse transcriptase	-	nucleotide incorporation / radiometric	-	RT-N137S	HIV	fold resistance	0.45
O=C(C1CCCCC1)N1C[C@H](CN2CCC(c3ccccc3)CC2)[C@@H](c2ccccc2)C1	CCR5	-	radiometric	-	CCR5-Y108A	-	IC50	0.97 µM
COc1cnccn1	Uracil phosphoribosyltransferase	-	-	RH	-	Toxoplasma gondii	IC50	>2000 µM
CC(C)c1cc(C(C)C)c(C(=O)Nc2nnc(NCCC#N)s2)c(C(C)C)c1	Polymerase	-	-	-	-	Human cytomegalovirus	IC50	>25 µM
O=c1[nH]cc(Cc2ccccc2)c(=O)[nH]1	Uracil phosphoribosyltransferase	2000 µM	-	RH	-	Toxoplasma gondii	inhibition	<5%
O=C(O)C(Cl)P(=O)(O)O	DNA polymerase	100 µM	-	-	-	Epstein-Barr virus	inhibition	66%
O=C(Nc1nnc(NCc2ccc(Cl)c(Cl)c2)s1)c1ccc(F)cc1F	Polymerase	-	-	-	-	Human cytomegalovirus	IC50	>25 µM
O=C1NC(=O)C([N+](=O)[O-])C(=O)N1	Uracil phosphoribosyltransferase	-	-	RH	-	Toxoplasma gondii	IC50	>2000 µM
O=C(/C=C/c1ccccc1Cl)Nc1nnc(NCCc2c[nH]c3ccccc23)s1	Polymerase	-	-	-	-	Human cytomegalovirus	IC50	>25 µM
O=C(O)C(Cl)(Cl)P(=O)(O)O	DNA polymerase	100 µM	-	-	-	Epstein-Barr virus	inhibition	32%

Repeating the final 3 entries:

| compound | protein | dose | read by | strain or isolate | changes | agent | measure | result |
|---|---|---|---|---|---|---|---|---|
| O=C1NC(=O)C([N+](=O)[O-])C(=O)N1 | Uracil phosphoribosyltransferase | - | - | RH | - | Toxoplasma gondii | IC50 | >2000 µM |
| O=C(/C=C/c1ccccc1Cl)Nc1nnc(NCCc2c[nH]c3ccccc23)s1 | Polymerase | - | - | - | - | Human cytomegalovirus | IC50 | >25 µM |
| O=C(O)C(Cl)(Cl)P(=O)(O)O | DNA polymerase | 100 µM | - | - | - | Epstein-Barr virus | inhibition | 32% |